What was measured:
[1] = biological target: V1 fHbp (V1.p1), wild type (Neisseria meningitidis) (UniProt Q9JXV4); experiment: SPR
[2] = biological target: V2 fHbp (V2.p21), wild type (Neisseria meningitidis) (UniProt E6MV22); experiment: SPR

Protein sequences, listed by entry. Tags and fused reporters are not part of them. Residues count along the entry.
UniProt Q9JXV4, 20-274: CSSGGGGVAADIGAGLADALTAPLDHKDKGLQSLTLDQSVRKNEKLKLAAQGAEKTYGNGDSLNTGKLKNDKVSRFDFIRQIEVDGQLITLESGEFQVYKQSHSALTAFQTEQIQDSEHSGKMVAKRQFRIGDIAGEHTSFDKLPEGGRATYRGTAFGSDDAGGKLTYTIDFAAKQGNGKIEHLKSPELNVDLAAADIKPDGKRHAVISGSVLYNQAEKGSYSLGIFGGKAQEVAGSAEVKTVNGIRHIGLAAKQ
UniProt E6MV22, 20-274: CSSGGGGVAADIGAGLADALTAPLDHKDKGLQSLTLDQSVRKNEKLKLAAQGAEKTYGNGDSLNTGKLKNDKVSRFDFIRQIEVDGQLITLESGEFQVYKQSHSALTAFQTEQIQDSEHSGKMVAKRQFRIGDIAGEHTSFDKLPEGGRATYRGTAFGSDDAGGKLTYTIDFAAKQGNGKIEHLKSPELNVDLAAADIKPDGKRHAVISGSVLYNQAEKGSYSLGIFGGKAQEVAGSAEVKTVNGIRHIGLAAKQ

“human factor H CCP 6 and 7 (fH67) (domain or fragment)” gave a Kd [1] of 3.2 nM and a Kd [2] of 1.9 nM.

Source: publication PMC3486911 (PLoS Pathogens, 2012)
